Results reported in patent publication US20240228596A1 (VIB VZW, published 2024).

B1: pX-B002_GS-VHH72-h1-E1D-S56A_(G4S)_VHH72-h1-E1D-S56A_His8 (VHH)
chain: DVQLVESGGGLVQPGGSLRLSCAASGRTFSEYAMGWFRQAPGKEREFVATISWSGGATYYTDSVKGRFTISRDNAKNTVYLQMNSLRPEDTAVYYCAAAGLGTVVSEWDYDYDYWGQGTLVTVSSGGGGSDVQLVESGGGLVQPGGSLRLSCAASGRTFSEYAMGWFRQAPGKEREFVATISWSGGATYYTDSVKGRFTISRDNAKNTVYLQMNSLRPEDTAVYYCAAAGLGTVVSEWDYDYDYWGQGTLVTVSS
B2: pX-B001_GS-VHH72-h1-E1D-S56A_(G4S)6_VHH72-h1-E1D-S56A_His8 (VHH)
chain: DVQLVESGGGLVQPGGSLRLSCAASGRTFSEYAMGWFRQAPGKEREFVATISWSGGATYYTDSVKGRFTISRDNAKNTVYLQMNSLRPEDTAVYYCAAAGLGTVVSEWDYDYDYWGQGTLVTVSSGGGGSGGGGSGGGGSGGGGSGGGGSGGGGSDVQLVESGGGLVQPGGSLRLSCAASGRTFSEYAMGWFRQAPGKEREFVATISWSGGATYYTDSVKGRFTISRDNAKNTVYLQMNSLRPEDTAVYYCAAAGLGTVVSEWDYDYDYWGQGTLVTVSS
B3: VHH3.83 (VHH)
VHH: QVQLQESGGGLVQPGDSLRLSCVLSGGVFTSYAMGWFRQAPGKEREFLAAITFNSDATYYADSVKGRFTISRDNAKNTAYLQMNSLKPNDTAVYSCAAGGNHYNPQYYHDYDKYDHWGQGTQVTVSS
B4: pX-B003_GS-VHH72-h1-E1D-S56A_(G4S)4_VHH72-h1-E1D-S56A_His8 (VHH)
chain: DVQLVESGGGLVQPGGSLRLSCAASGRTFSEYAMGWFRQAPGKEREFVATISWSGGATYYTDSVKGRFTISRDNAKNTVYLQMNSLRPEDTAVYYCAAAGLGTVVSEWDYDYDYWGQGTLVTVSSGGGGSGGGGSGGGGSGGGGSDVQLVESGGGLVQPGGSLRLSCAASGRTFSEYAMGWFRQAPGKEREFVATISWSGGATYYTDSVKGRFTISRDNAKNTVYLQMNSLRPEDTAVYYCAAAGLGTVVSEWDYDYDYWGQGTLVTVSS
B5: VHH3.117 (VHH)
VHH: QVQLQESGGGLVQPGGSLRLSCAASGKAVSISDMGWYRQPPGKQRELVATITKTGSTNYADSAQGRFTISRDNTKSAVYLEMKSLKPEDTAVYYCNAWLPYGMGPDYYGMELWGKGTQVTVSS
B6: KiH19 = VHH117/VHH83-10GS-KiH (bispecific antibody, V domains shown)
V domain 1: B5 VHH with Q1D
V domain 2: B3 VHH with Q1D, N89E
B7: pX-B011_GS-VHH3-117-hc_(G4S)_VHH3-83-hc-N85E_His8 (bispecific antibody)
chain: DVQLVESGGGLVQPGGSLRLSCAASGKAVSISDMGWYRQPPGKQRELVATITKTGSTNYADSAQGRFTISRDNTKSAVYLEMKSLRPEDTAVYYCNAWLPYGMGPDYYGMELWGKGTLVTVSSGGGGSDVQLQESGGGLVQPGDSLRLSCVLSGGVFTSYAMGWFRQAPGKEREFLAAITFNSDATYYADSVKGRFTISRDNAKNTAYLQMNSLRPEDTAVYSCAAGGNHYNPQYYHDYDKYDHWGQGTLVTVSS
B8: KIH10 = VHH72_5mut/VHH89Hum-KiH (bispecific antibody, V domains shown)
V domain 1: DVQLVESGGGLVQPGGSLRLSCAASGLTFSDIAMGWFRQAPGKEREFVATISWSGGGTYYTDSVKGRFTISRDNAKNTVYLQMNSLRPEDTAVYYCAAAGAGTVVSEWDYDYDYWGQGTLVTVSS
V domain 2: DVQLVESGGGLVQPGGSLRLSCAASGFTLDYYAIGWFRQAPGKEREGLSRIDSSDGSTYYADSVKGRFTISRDNAKNIVYLQMNSLKPEDTAVYYCATDPIIQGRNWYWTGWGQGTLVTVSS
B9: pX-B007_GS-VHH3-117-hc_(G4S)6_VHH3-83-hc_His8 (bispecific antibody)
chain: DVQLVESGGGLVQPGGSLRLSCAASGKAVSISDMGWYRQPPGKQRELVATITKTGSTNYADSAQGRFTISRDNTKSAVYLEMKSLRPEDTAVYYCNAWLPYGMGPDYYGMELWGKGTLVTVSSGGGGSGGGGSGGGGSGGGGSGGGGSGGGGSDVQLQESGGGLVQPGDSLRLSCVLSGGVFTSYAMGWFRQAPGKEREFLAAITFNSDATYYADSVKGRFTISRDNAKNTAYLQMNSLRPNDTAVYSCAAGGNHYNPQYYHDYDKYDHWGQGTLVTVSS
B10: pX-B008_GS-VHH3-117-hc_(G4S)6_VHH3-83-hc-N85E_His8 (bispecific antibody)
chain: B9 chain with N242E

Assays:
Assay in all cases: cell-based or functional assay
[1] = molecular target: SARS-COV-2 Wuhan WT Spike_del18 on VSV-delG pseudotyped particles (SARS-COV-2, UniProt P0DTC2 14-1255)
[2] = molecular target: SARS-COV-2 Omicron BA.2 Spike_del18 on VSV pseudotyped particles (SARS-COV-2 Omicron BA.2, UniProt P0DTC2 14-1255)
[3] = molecular target: SARS-COV-2 S375F variant spike protein on VSV pseudotyped particles

Row | Binder | EC50 nM, pseudoneutralization assay [1] | further results
1 | B1 | 3.74 nM | –
2 | B2 | 5.54 nM | –
3 | B3 | 16.2 nM | –
4 | B4 | 12.1 nM | –
5 | B5 | 36.7 nM | –
6 | B6 | – | loss of neutralizing activity for Omicron BA.2 against WT pseudotyped VSV [2]: 2.4 fold
7 | B7 | 21 nM | –
8 | B8 | – | IC50, neutralization of pseudotyped VSV particles [3]: ~1.6 µg/mL
9 | B9 | 10.2 nM | IC50 ug/ml, pseudoneutralization assay [1]: 0.312 µg/mL
10 | B10 | 6.42 nM | –

Substitutions are numbered along the chain they refer to. Names may count otherwise.
